Assay results: patent publication US6635636B1, “Substituted 6-benzyl-4-oxopyrimidines, process for their preparation and pharmaceutical compositions containing them” (Idenix Pharmaceuticals, Inc., priority 1998, dated 2003)

Test system: HIV-1 (IIIB strain)
Test: Anti-HIV-1 assay: inhibition of virus-induced cytopathicity in acutely infected MT-4 cells (MTT)
Assay type: cell-based
Conditions: CC50 (mock-infected cells) / EC50 (HIV-1 in MT-4 cells)
Procedure: Compounds. Compounds were solubilized in DMSO at 200 mM and then diluted into culture medium.
Cells and viruses. MT-4, C8166, H9/IIIB and CEM cells were grown at 37° C. in a 5% CO2 atmosphere in RPMI 1640 medium, supplemented with 10% fetal calf serum (FCS), 100 UI/mL penicillin and 100 μg/mL streptomycin. Cell cultures were checked periodically for the absence of mycoplasma contamination with a MycoTect Kit (Gibco). Human immunodeficiency virus type-1 (HIV-1, IIIB strain) was obtained from supernatants of persistently infected H9/IIIB cells.
Anti-HIV assays. Activity of the compounds against HIV-1 and HIV-2 multiplication in acutely infected cells was based on the inhibition of virus-induced cytopathicity in MT-4 and C8166 cells, respectively. Briefly, 50 μL of culture medium containing 1×10^4 cells were added to each well of flat-bottom microtiter trays containing 50 μl of culture medium with or without various concentrations of the test compounds. Then 20 μL of an HIV suspension containing 100 CCID50 were added. After a 4-day incubation at 37° C., the number of viable cells was determined by the 3-(4,5-dimethylthiazol-[…])-2,5-diphenyltetrazolium bromide (MTT) method. Cytotoxicity of the compounds was evaluated in parallel with their antiviral activity. It was based on the viability of mock-infected cells, as monitored by the MTT method.

| SMILES | SI: selectivity index, CC50/EC50 ratio |
| --- | --- |
| CSCSc1nc(Cc2c(F)cccc2F)c(C(C)C)c(=O)[nH]1 [MC 1145] | 2,000 |
| Cc1c(C(C)c2c(F)cccc2F)nc(SC2CCCCC2)[nH]c1=O (racemic) [MC 1174] | >11,111 |
| Cc1c(Cc2c(F)cccc2F)nc(N(C)C)[nH]c1=O [MC 1195] | >10,000 |
| CCCCSc1nc(C(C)c2c(F)cccc2F)c(C)c(=O)[nH]1 (racemic) [MC 1175] | 14,000 |
| Cc1c(C(C)c2c(F)cccc2F)nc(SCC(C)C)[nH]c1=O (racemic) [MC 1153] | >20,000 |
| Cc1c(C(C)c2c(F)cccc2F)nc(SC2CCCC2)[nH]c1=O (single isomer, unassigned) [MC 1047+] | >100,000 |
| CCN(CC)c1nc(Cc2c(F)cccc2F)cc(=O)[nH]1 [MC 1202] | >769 |
| CNc1nc(C(C)c2c(F)cccc2F)c(C)c(=O)[nH]1 (racemic) [MC 1170] | >6,666 |
| CCCN(CCC)c1nc(Cc2c(F)cccc2F)cc(=O)[nH]1 [MC 1204] | >53 |
| Cc1c(C(C)c2c(F)cccc2F)nc(SC2CCCC2)[nH]c1=O (single isomer, unassigned) [MC 1047−] | >286 |
| O=c1cc(Cc2c(F)cccc2F)nc(N2CCSCC2)[nH]1 [MC 1193] | >4,000 |

Same assay, conditions: CC50/EC50 ratio

| SMILES | SI (selectivity index, CC50/EC50 ratio) |
| --- | --- |
| CC(C)Sc1nc(C(C)c2cccc3ccccc23)cc(=O)[nH]1 (stereo not shown) [MC 971] | 108 |
| CCC(C)Sc1nc(Cc2cccc(F)c2)cc(=O)[nH]1 (racemic) [MC 884] | >286 |
| CCC(C)Sc1nc(Cc2ccc(Cl)cc2)c(C)c(=O)[nH]1 (stereo not shown) [MC 911] | 20 |
| CC(c1cc(=O)[nH]c(SC2CCCC2)n1)c1cccc2ccccc12 (stereo not shown) [MC 972] | 186 |
| CC(C)Sc1nc(C(C)c2ccccc2)cc(=O)[nH]1 (racemic) [MC 890] | >222 |
| CC(C)Sc1nc(Cc2c(F)cccc2F)cc(=O)[nH]1 [MC 860] | >1,000 |
| CCC(C)Sc1nc(Cc2ccccc2[N+](=O)[O-])cc(=O)[nH]1 (racemic) [MC 817] | >800 |
| O=c1cc(Cc2c(F)cccc2F)nc(OC2CCCC2)[nH]1 [MC 1103] | >10 |
| CCCCNc1nc(Cc2c(F)cccc2F)c(C)c(=O)[nH]1 [MC 1185] | >10,000 |
| Cc1c(Cc2c(Cl)cccc2Cl)nc(SC(C)C)[nH]c1=O [MC 914] | >154 |
| O=c1cc(Cc2c(Cl)cccc2Cl)nc(SC2CCCC2)[nH]1 [MC 888] | >500 |
| CCC(C)Nc1nc(Cc2c(F)cccc2F)c(C)c(=O)[nH]1 (stereo not shown) [MC 1130] | 2,857 |
| Cc1c(Cc2c(F)cccc2F)nc(SC2CCCCC2)[nH]c1=O [MC 923] | >2,222 |
| CSc1nc(Cc2c(F)cccc2F)cc(=O)[nH]1 [MC 871] | 247 |
| CCCNc1nc(Cc2c(F)cccc2F)cc(=O)[nH]1 [MC 1078] | 1,818 |
| CCC(c1cc(=O)[nH]c(SC(C)C)n1)c1c(Cl)cccc1Cl (stereo not shown) [MC 1000] | >500 |
| CCC(C)Sc1nc(Cc2ccc(C(F)(F)F)cc2)cc(=O)[nH]1 (racemic) [MC 959] | 8 |
| O=c1cc(Cc2c(F)cccc2F)nc(SC2CCCCC2)[nH]1 [MC 870] | 2,500 |
| CCC(C)Sc1nc(Cc2c(F)cccc2F)c(C)c(=O)[nH]1 (stereo not shown) [MC 849] | 8,000 |
| CCc1c(Cc2ccccc2)nc(SC(C)CC)[nH]c1=O (stereo not shown) [MC 798] | >200 |
| CNc1nc(Cc2c(F)cccc2F)cc(=O)[nH]1 [MC 1167] | >133 |
| CC(c1ccccc1)c1cc(=O)[nH]c(SC2CCCC2)n1 (racemic) [MC 892] | 333 |

| SMILES | SI (selectivity index, CC50/EC50 ratio) |
| --- | --- |
| CCC(C)Sc1nc(C(C)c2c(F)cccc2F)cc(=O)[nH]1 (stereo not shown) [MC 1110] | >6,666 |
| CCC(C)Sc1nc(C(C)c2c(F)cccc2F)c(C)c(=O)[nH]1 (stereo not shown) [MC 1109] | >6,666 |
| CCCCSc1nc(Cc2c(F)cccc2F)cc(=O)[nH]1 [MC 872] | 900 |
| CCCCSc1nc(Cc2c(F)cccc2F)c(C)c(=O)[nH]1 [MC 905] | >2,500 |
| CC1CCC(C)C(Oc2nc(Cc3ccccc3)cc(=O)[nH]2)C1 (mixture of isomers) [MC 507] | 40 |
| CCC(C)Sc1nc(Cc2ccc([N+](=O)[O-])cc2)c(C)c(=O)[nH]1 (stereo not shown) [MC 924] | >100 |
| CC1CC(C)CC(Oc2nc(Cc3ccccc3)cc(=O)[nH]2)C1 (mixture of isomers) [MC 512] | >6.7 |
| CC(C)CSc1nc(Cc2c(Cl)cccc2Cl)cc(=O)[nH]1 [MC 885] | >444 |
| CC(c1cc(=O)[nH]c(SC2CCCC2)n1)c1c(F)cccc1F (stereo not shown) [MC 1008] | >6,666 |
| CC(c1cc(=O)[nH]c(SC2CCCC2)n1)c1c(Cl)cccc1Cl (stereo not shown) [MC 996] | 78.3 |
| CCC(c1cc(=O)[nH]c(SC(C)C)n1)c1c(F)cccc1F (stereo not shown) [MC 1005] | 875 |
| Cc1c(C(C)c2c(F)cccc2F)nc(NC2CCCC2)[nH]c1=O (stereo not shown) [MC 1129] | 4,500 |
| CC(c1cc(=O)[nH]c(SC2CCCCC2)n1)c1c(F)cccc1F (stereo not shown) [MC 1013] | >1,250 |
| CCC(c1ccccc1)c1cc(=O)[nH]c(SC(C)C)n1 (racemic) [MC 899] | 250 |
| CCC(C)Sc1nc(Cc2cccc(OC)c2)cc(=O)[nH]1 (stereo not shown) [MC 957] | >166 |
| CCCCNc1nc(Cc2c(F)cccc2F)cc(=O)[nH]1 [MC 1077] | 1,000 |
| CCC(C)Sc1nc(Cc2ccccc2OC)cc(=O)[nH]1 (stereo not shown) [MC 952] | >208 |
| CCC(C)Nc1nc(Cc2c(F)cccc2F)cc(=O)[nH]1 (stereo not shown) [MC 945] | >1,540 |
| CCCCSc1nc(Cc2c(Cl)cccc2Cl)cc(=O)[nH]1 [MC 886] | >454 |
| CCC(C)Sc1nc(Cc2ccc(C)cc2)cc(=O)[nH]1 (racemic) [MC 809] | 333.3 |
| CC(C)Nc1nc(Cc2c(F)cccc2F)cc(=O)[nH]1 [MC 979] | >526 |
| CCCCSc1nc(C(C)c2c(F)cccc2F)cc(=O)[nH]1 (stereo not shown) [MC 1045] | 2,857 |
